Compound potency records, mixed from different reports. Data source: NIAID ChemDB in PubChem.

All rows: whole-cell or culture tests; organism: Mycobacterium avium; read-out: MIC

Blank or dashed fields: not listed here. Conditions beyond the fields shown may differ between rows.

smiles,strain,setting,value
COc1ccc(NC(=O)c2ccccc2O)cc1,CNCTC MY330/88,,125 µM
Cc1cccc(C(=S)Nc2ccc(C(C)C)cc2)c1,MY330/88,,62.6 µM
O=C(NCc1ccccn1)c1ccc(Cl)cc1O,ATCC 25291,14 d,500 µM
Clc1ccc(CNc2ccccc2N2CCOCC2)cc1,103317,,25 µM
O=C(NCc1ccccc1)c1cc(Br)cc(Br)c1O,ATCC 25291,21 d,125 µM
CC(C)(C)n1cc(C(=O)O)c(=O)c2cc(F)c(N3CCNCC3)nc21,RG1,,1 µg/mL
O=C(Nc1cccc(C(F)(F)F)c1)c1cc(Cl)ccc1OS(=O)(=O)c1ccccc1,330/88,21 d,62.5 µM
c1ccc(CCSc2ncnc3ccccc23)cc1,CNCTC MY80/72,,63 µM
O=c1oc2ccc(F)cc2c(=S)n1-c1ccc(Cl)cc1,MY330/88,21 d,8 µM
S=c1oc2ccc(Cl)cc2c(=S)n1-c1cccc(Cl)c1,MY330/88,,31 µM
O=C(NCc1ccccc1)c1ccc(Cl)cc1O,ATCC 25291,14 d,62 µM
O=C(Nc1cnccn1)c1cc(F)ccc1O,MY330/88,,125 µM
CC(C)N=C(N)/N=C(\N)NOCCCOc1ccc(Cl)c(Cl)c1,Farino,,<0.1 µg/mL
N#Cc1ccnc(SCC(O)CO)c1,330/88,,1000 µM
CCCCOc1ccc(NC(=O)OCCN(C)C)cc1,MY330/88,,62.5 µM
O=C(Nc1cccc(Br)c1)c1ccc(Cl)cc1OS(=O)(=O)c1ccccc1,330/88,14 d,250 µM
CCCCCCCC[N+]1(CCOC(=O)Nc2ccccc2OCCCCCC)CCCCC1,MY330/88,,32 µM
COc1ccc(NC(=O)OCC[NH+]2CCCC2)cc1,MY330/88,,>1000 µM
COc1ccc2oc(=S)n(-c3ccc(C)cc3)c(=S)c2c1,MY330/88,14 d,16 µM
CC(C)CSc1ncnc2ccccc12,CNCTC MY66/72,,63 µM
O/N=C(/Cn1ccnc1)c1ccccc1,103317,,39.7 µM
N#Cc1cc(SCC(=O)NN)ccn1,330/88,,250 µM
O=C(Nc1ccc(Cl)c(Cl)c1)c1ccc(Cl)cc1OS(=O)(=O)c1ccccc1,330/88,21 d,62.5 µM
Clc1ccc(CNc2ccc(N3CCOCC3)cc2)cc1,103317,,101 µM
CCCCCCOc1ccccc1NC(=O)OCC[N+]1(C)CCCCC1,MY330/88,,125 µM
O=C(Nc1cncs1)c1ccc(Cl)cc1O,MY330/88,,250 µM
S=c1oc2ccc(Cl)cc2c(=S)n1-c1ccccc1,MY330/88,,16 µM
S=c1[nH]c2ccccc2c(=S)n1-c1ccccc1,330/88,,64 µM
Clc1ccc(CNc2cccc(N3CCSCC3)c2)cc1,103317,,>16 µg/mL
Cc1cccc(C(N)=Nc2nc(-c3ccccn3)cc3ccccc23)c1,1908-3,,2 µg/mL
O=C(NCc1ccc(Br)cc1)c1ncccc1O,CNCTC MY330/88,,62.5 µM
CN1CCN(c2cccc(NCc3ccc(Cl)cc3)c2)CC1,103317,,97.8 µM
O=C(Nc1cncs1)c1cc(F)ccc1O,MY330/88,,1000 µM
CCOc1c(N2CCC(C(C)(C)N)C2)c(F)cc2c(=O)c(C(=O)O)cn(C3CC3)c12,SMD,,1 µg/mL
COc1ccc(/C=N/n2c(C)nc3scc(-c4ccco4)c3c2=O)cc1,CNCTC MY330/88,,15 µM
O=c1oc2ccc(Cl)cc2c(=O)n1-c1ccc(Cl)cc1,MY330/88,,8 µM
S=C(Nc1ccc(C2CCCCC2)cc1)c1ccccc1,MY330/88,,16 µM
N#CCCCSc1cc(C(=N)N)ccn1,330/88,,>1000 µM
CCCCCCCOc1cccc(NC(=O)OC(COCC)CN2CCCCC2)c1,MY330/88,,8 µM
CCCCCCCCCCCC[N+]1(CCOC(=O)Nc2ccccc2OCCCCCC)CCCCC1,MY330/88,,16 µM
Clc1ccc(CNc2ccc(N3CCSCC3)cc2)cc1,103317,,8 µg/mL
CCCCCOc1cccc(NC(=O)OCCN2CCCCC2)c1,MY330/88,,62.5 µM
Cc1ccc(-n2c(=O)oc3ccc(Cl)cc3c2=O)cc1,MY330/88,,16 µM
O=C(Nn1cncn1)c1cc(Cl)ccc1O,MY330/88,,1000 µM
CCCCc1ccc(NC(=S)c2cccc(Cl)c2)cc1,MY330/88,,62.5 µM
CN1CCN(c2ccccc2NCc2ccc(-c3ccccc3)cc2)CC1,103317,,10.8 µM
CCCCCCSc1ncnc2ccccc12,D 5/93,,63 µM
CCCOc1ccc(NC(=O)OCCN2CCCCCC2)cc1,MY330/88,,250 µM
O=C(N/N=C(\COc1ccc(Cl)cc1)N=Cc1ccncc1)c1ccncc1,ATCC 19421,,>100 µg/mL
O=C(NCc1ccc(Cl)c(Cl)c1)c1ncccc1S,CNCTC MY330/88,,16 µM
O=C(C/C=C/c1ccccc1)Nc1cccc(N2CCSCC2)c1,103317,,>16 µg/mL
N#CCCSc1ccnc(C#N)c1,330/88,,250 µM
O=C(NCc1ccc(Cl)c(Cl)c1)c1ncccc1O,CNCTC MY330/88,,62.5 µM
O=c1oc2ccc(Cl)cc2c(=S)n1-c1ccc(Br)cc1,MY330/88,,31 µM
CCCCCOc1ccccc1NC(=O)OCCN(C)C,MY330/88,,32 µM
Cc1nc2scc(-c3ccco3)c2c(=O)n1/N=C/c1ccc(F)cc1F,CNCTC MY330/88,,4 µM
S=c1oc2ccc(Cl)cc2c(=S)n1-c1ccc(Cl)cc1,MY330/88,,16 µM
N/C(COc1ccc(Cl)cc1)=N/NC(=O)c1ccncc1,ATCC 19421,,>100 µg/mL
O=C(Nc1ccc(Cl)cc1)c1cc(Cl)ccc1OS(=O)(=O)c1ccccc1,330/88,21 d,32 µM
Cc1nc2scc(-c3ccco3)c2c(=O)n1N,CNCTC MY330/88,,515 µM
Cc1cc(NC(=O)c2cc(F)ccc2O)no1,MY330/88,,250 µM
Cc1ccc(C(=O)NCc2cccnc2)c(O)c1,ATCC 25291,14 d,500 µM
CCSc1ncnc2ccccc12,CNCTC MY66/72,,125 µM
C[C@H]1COc2c(N3CCN(C)CC3)c(F)cc3c(=O)c(C(=O)O)cn1c23,ATCC 25291,,1 µg/mL
S=c1[nH]c2ccccc2c(=S)n1-c1ccc(Cl)c(Cl)c1,330/88,,64 µM
O=C(Nc1ccc(Cl)cc1)c1ncccc1O,CNCTC MY330/88,,62.5 µM
O=C(Nc1cccc(Cl)c1)c1cc(Cl)ccc1OS(=O)(=O)c1ccccc1,330/88,21 d,32 µM
O=c1oc2ccc(Cl)cc2c(=S)n1-c1ccc(Cl)c(Cl)c1,MY330/88,,16 µM
O=C(Nc1ccc(Cl)c(Cl)c1)c1cc(Cl)ccc1OS(=O)(=O)c1ccccc1,330/88,21 d,16 µM
Clc1ccc(C(Cn2ccnc2)NCc2cccc3ccccc23)cc1,103317,,22.1 µM
O=C(Nc1ccc(C(F)(F)F)cc1)c1ccccc1O,CNCTC MY330/88,,16 µM
N/C(COc1ccccc1Cl)=N/NC(=O)c1ccncc1,ATCC 19421,,>100 µg/mL
c1ccc(CSc2ncnc3ccccc23)cc1,D 5/93,,63 µM
CC(=O)Nn1c(C)nc2scc(-c3ccco3)c2c1=O,CNCTC MY330/88,,211 µM
Cc1ccc2oc(=O)n(-c3ccc(Cl)c(Cl)c3)c(=S)c2c1,MY330/88,21 d,16 µM
O=C(NCc1ccc(Cl)cc1)c1ncccc1S,CNCTC MY330/88,,16 µM
Cc1cccc(C(=O)NCc2cccnc2)c1O,ATCC 25291,21 d,500 µM
Cc1nc2scc(-c3ccco3)c2c(=O)n1NC(=O)C1CC1,CNCTC MY330/88,,218 µM
O=c1oc2ccc(Cl)cc2c(=O)n1-c1cccc(Cl)c1,MY330/88,,8 µM
CC(C)c1ccc(NC(=S)c2cccc(Cl)c2)cc1,MY330/88,,32 µM
Clc1ccc2c(c1)nc1cc(Nc3ccccc3)c(=NC3CCCCC3)cc-1n2-c1ccccc1,8775,,2 µg/mL
CN1CCN(c2ccc(NCc3ccc(Cl)cc3)cc2)CC1,103317,,>16 µg/mL
CCCCCCCCOc1ccccc1NC(=O)OCCN(C)C,MY330/88,,8 µM
CCCCCCCOc1ccccc1NC(=O)OC(COCC)CN1CCCCC1,MY330/88,,125 µM
S=c1[nH]c2ccccc2c(=S)n1-c1ccc(Cl)cc1,330/88,,>64 µM
Cc1ccc(-n2c(=S)oc3ccc(Cl)cc3c2=S)cc1,MY330/88,,16 µM
Cc1nc2scc(-c3ccco3)c2c(=O)n1NC(=O)C1CCCCC1,CNCTC MY330/88,,215 µM
S=c1oc2ccc(Br)cc2c(=S)n1-c1cccc(Cl)c1,MY330/88,14 d,16 µM
Cc1ccnc(NC(=O)c2cc(Cl)ccc2O)n1,MY330/88,,250 µM
Cc1ccc(-n2c(=S)oc3c(Cl)cc(Cl)cc3c2=S)cc1,330/88,,125 µM
Cc1nc2scc(-c3ccco3)c2c(=O)n1NC(=O)c1ccc(F)cc1,CNCTC MY330/88,,25 µM
O=C(Nc1cccc(N2CCSCC2)c1)c1ccc(Cl)cc1,103317,,23.1 µM
Fc1ccc2oc(=S)n(-c3ccc(C(F)(F)F)cc3)c(=S)c2c1,MY330/88,14 d,32 µM
CCCCCCOc1ccccc1NC(=O)OCC[N+]1(CCCCCC)CCCCC1,MY330/88,,16 µM
CCCCOc1ccc(NC(=O)OCCN2CCCCC2)cc1,MY330/88,,125 µM
CC[C@H]1OC(=O)[C@H](C)C(=O)[C@H](C)[C@@H](O[C@@H]2O[C@H](C)C[C@H](N(C)C)[C@H]2O)[C@](C)(OC)C[C@@H](C)C(=O)[C@H](C)[C@H]2N(NCCCc3ccnc4ccccc34)C(=O)O[C@]12C,Isolate 1110,,10 µg/mL
NC(=S)c1cc(N2CCCCC2)ccn1,330/88,,250 µM
COc1ccc(OC/C(N)=N\NC(=O)c2ccncc2)cc1,ATCC 19421,,100 µg/mL
c1ccc(CO/N=C(\Cn2ccnc2)c2ccccc2)cc1,103317,,3.43 µM
COc1ccc(OC/C(N=Cc2ccncc2)=N\NC(=O)c2ccncc2)cc1,ATCC 19421,,>100 µg/mL
Cc1ccc(-n2c(=S)[nH]c3ccccc3c2=S)cc1,330/88,,32 µM

The first 8 rows once more:

COc1ccc(NC(=O)c2ccccc2O)cc1 ; strain: CNCTC MY330/88 ; value: 125 µM
Cc1cccc(C(=S)Nc2ccc(C(C)C)cc2)c1 ; strain: MY330/88 ; value: 62.6 µM
O=C(NCc1ccccn1)c1ccc(Cl)cc1O ; strain: ATCC 25291 ; setting: 14 d ; value: 500 µM
Clc1ccc(CNc2ccccc2N2CCOCC2)cc1 ; strain: 103317 ; value: 25 µM
O=C(NCc1ccccc1)c1cc(Br)cc(Br)c1O ; strain: ATCC 25291 ; setting: 21 d ; value: 125 µM
CC(C)(C)n1cc(C(=O)O)c(=O)c2cc(F)c(N3CCNCC3)nc21 ; strain: RG1 ; value: 1 µg/mL
O=C(Nc1cccc(C(F)(F)F)c1)c1cc(Cl)ccc1OS(=O)(=O)c1ccccc1 ; strain: 330/88 ; setting: 21 d ; value: 62.5 µM
c1ccc(CCSc2ncnc3ccccc23)cc1 ; strain: CNCTC MY80/72 ; value: 63 µM